Anti-infective test results gathered from many reports (values: NIAID ChemDB through PubChem).

All rows: enzyme or target tests; organism: HIV-1; target: Protease; measure: IC50

Blank or dashed fields: not listed here.

SMILES,read by,strain or isolate,result
CC(C)(C)OC(=O)N[C@@H](Cc1ccccc1)[C@@H](O)C[C@@H](Cc1ccc(OCc2nn[nH]n2)cc1)C(=O)N[C@H]1c2ccccc2C[C@H]1O,absorbance,-,0.00004 µM
Cc1ccc(Cl)cc1N1CCN(Cc2cn([C@@H](Cc3ccccc3)[C@H](Cc3ccccc3)NC(=O)C3CCCCC3)nn2)CC1,fluorescence,-,>5 µM
Nc1ccc(N)c2c1C(=O)c1c(N)ccc(N)c1C2=O,fluorescence,-,16 µM
Cc1c(C(c2ccccc2)(c2ccccc2)n2ccnc2)nnn1-c1ccccc1Cl,substrate cleavage / fluorescence,-,48.4 µg/mL
CCCCCCCCCCCCCCCCCCCCCCC(=O)O[C@@H]1[C@@H](C)[C@@]2(O)[C@@H](C=C(COC(C)=O)C[C@]3(O)C(=O)C(C)=C[C@@H]23)[C@@H]2C(C)(C)[C@]12O,substrate cleavage / fluorescence,-,>67.5 µM
O=C1c2ccccc2C(=O)c2c(O)c(O)cc(O)c21,fluorescence,-,100 µM
CCN[C@H]1CO[C@@H]2OC[C@H](OC(=O)N[C@@H](Cc3cc(F)cc(F)c3)[C@H](O)CN(CC(C)C)S(=O)(=O)c3ccc4nc(NC5CC5)sc4c3)[C@@H]21,substrate cleavage / fluorescence,-,0.001 µM
C=CC(C)(C)c1c(O)ccc2c(=O)c3c(O)c(CC=C(C)C)c(OC)c(O)c3oc12,substrate cleavage,-,11.3 µg/mL
CC(C)C[C@H](NC(=O)OCc1ccccc1)C(=O)N[C@@H](CC(N)=O)C(=O)N[C@@H](Cc1ccccc1)[C@H](O)CN1CCC[C@H]1C(=O)OC(C)(C)C,absorbance,-,0.6 µM
CC(C)[C@H](NC(=O)c1ccc2ccccc2n1)C(=O)N[C@@H](Cc1ccccc1)[C@H](O)CN1CC[C@@H](OCc2ccncc2)C[C@H]1C(=O)NC(C)(C)C,substrate cleavage / HPLC,-,0.004 µM
COc1ccc(CS(=O)(=O)C[C@@H](NC(C)=O)C(=O)N[C@@H](Cc2ccccc2)[C@H](O)C(=O)N2CSC(C)(C)[C@H]2C(=O)NCc2ccccc2C)cc1,-,-,<0.001 µM
CC(=O)NCC(=O)N[C@H](C(=O)N[C@@H](Cc1ccccc1)C(=O)C(F)(F)CCc1ccccc1)C(C)C,substrate cleavage,-,0.0032 µM
Nc1cc(S(=O)(=O)O)c(O)c2c1C(=O)c1c(O)c(S(=O)(=O)O)cc(N)c1C2=O,fluorescence,-,>100 µM
C=CCc1ccc(O)c(-c2cc(C(OCC)C(C)O)ccc2O)c1,FRET,-,200 µM
CCN[C@H]1CO[C@@H]2OC[C@H](OC(=O)N[C@@H](Cc3ccccc3)[C@H](O)CN(CC(C)C)S(=O)(=O)c3ccc4nc(NC5CC5)sc4c3)[C@@H]21,substrate cleavage / fluorescence,-,0.0008 µM
CN(C)[C@@H]1C(=O)C(C(N)=O)=C(O)[C@@]2(O)C(=O)C3=C(O)c4c(O)cccc4[C@@](C)(O)[C@H]3C[C@@H]12,fluorescence,-,100 µM
O=C(N[C@@H](Cc1ccccc1)[C@H](Cc1ccccc1)n1cc(CN2CCN(c3cccc(O)c3)CC2)nn1)OC1CCCC1,fluorescence,-,<5 µM
Cc1ccc(Nc2cccc3c2C(=O)c2cccc(Nc4ccc(C)cc4S(=O)(=O)O)c2C3=O)c(S(=O)(=O)O)c1,fluorescence,-,20 µM
CC(C)NC(=O)[C@@H]1C[C@@H]2CCCC[C@@H]2N1C(=O)[C@@H](O)[C@H](Cc1ccccc1)NC(=O)[C@@H](NC(=O)COc1cccc2ccccc12)C(C)C,substrate cleavage,BRU,0.0036 µM
Cc1ccc(Cl)cc1N1CCN(Cc2cn([C@@H](Cc3ccccc3)[C@H](Cc3ccccc3)NC(=O)Nc3ccc(F)cc3)nn2)CC1,fluorescence,-,>5 µM
CC(C)(C)NC(=O)[C@@H]1CCCN1C(=O)[C@@H](O)[C@H](Cc1ccccc1)NC(=O)[C@H](CC(N)=O)NC(=O)COc1cccc2ccccc12,substrate cleavage,BRU,0.0013 µM
O=C(N[C@@H](Cc1ccccc1)[C@H](Cc1ccccc1)n1cc(CN2CCN(c3cccc(Cl)c3)CC2)nn1)OC1CCCC1,fluorescence,-,<5 µM
Cc1cc(SC2=C(O)CC(CCc3ccc(O)cc3)(c3ccccc3)OC2=O)c(C(C)(C)C)cc1CO,HPLC / absorbance,-,0.0216 µM
CC(C)OP(=O)(COc1ccc(C[C@H](C[C@H](O)[C@H](Cc2ccccc2)NC(=O)OC(C)(C)C)C(=O)N[C@H]2c3ccccc3C[C@H]2O)cc1)OC(C)C,absorbance,-,0.0001 µM
O=C(N[C@@H](Cc1ccccc1)[C@H](Cc1ccccc1)n1cc(CN2CCC(O)(c3ccccc3)CC2)nn1)OC1CCCC1,fluorescence,-,>5 µM
CC(C)(C)OC(=O)N[C@@H](Cc1ccccc1)[C@@H](O)C[C@@H](Cc1ccc(OCP(=O)(OCc2ccccc2)OCc2ccccc2)cc1)C(=O)N[C@H]1c2ccccc2C[C@H]1O,absorbance,-,0.0002 µM
CC(C)(C)NC(=O)[C@@H]1C[C@@H]2CCCC[C@@H]2N1C(=O)[C@@H](O)[C@H](Cc1ccccc1)NC(=O)[C@H](CC(N)=O)NC(=O)c1ccc2ccccc2n1,substrate cleavage,BRU,0.0013 µM

For reference, 4 entries again:

SMILES	read by	strain or isolate	result
CC(C)(C)OC(=O)N[C@@H](Cc1ccccc1)[C@@H](O)C[C@@H](Cc1ccc(OCP(=O)(OCc2ccccc2)OCc2ccccc2)cc1)C(=O)N[C@H]1c2ccccc2C[C@H]1O	absorbance	-	0.0002 µM
CCN[C@H]1CO[C@@H]2OC[C@H](OC(=O)N[C@@H](Cc3ccccc3)[C@H](O)CN(CC(C)C)S(=O)(=O)c3ccc4nc(NC5CC5)sc4c3)[C@@H]21	substrate cleavage / fluorescence	-	0.0008 µM
CCCCCCCCCCCCCCCCCCCCCCC(=O)O[C@@H]1[C@@H](C)[C@@]2(O)[C@@H](C=C(COC(C)=O)C[C@]3(O)C(=O)C(C)=C[C@@H]23)[C@@H]2C(C)(C)[C@]12O	substrate cleavage / fluorescence	-	>67.5 µM
CN(C)[C@@H]1C(=O)C(C(N)=O)=C(O)[C@@]2(O)C(=O)C3=C(O)c4c(O)cccc4[C@@](C)(O)[C@H]3C[C@@H]12	fluorescence	-	100 µM

ICn: concentration for n% inhibition. Lines come from different laboratories, so protocols vary.